{"source": "patent US20230109218A1", "about": "(BIOATLA, published 2023)", "target": "T1, recombinant human HER2 antigen (human)", "T1 construct": "also called human HER2 protein", "test": "pH range ELISA on coated recombinant human HER2, antibody 100 ng/mL, pH 5.0-7.4; pH of 50% binding (binding at pH 6.0 = 100%)", "data": [{"binder": "LC A032D/HC A106E conditionally active anti-HER2 antibody (antibody, V domains shown, also called BA-130-03-07) VH: [about 120 residues with changes not printed] VL: DIQMTQSPSSLSASVGDRVTITCRASQDVNTDVAWYQQKPGKAPKLLIYSASFLYSGVPSRFSGSRSGTDFTLTISSLQPEDFATYYCQQHYTTPPTFGQGTKVEIK", "values": [{"measurement": "pH inflection point", "value": 6.61, "unit": "pH"}]}]}
